Experiment [1] has as its target soluble E80 protein of DENV-3 (Dengue virus type 3; strain of E80 not …, UniProt P27915).
In experiment [2] the target is soluble E80 protein of DENV-1 (Dengue virus type 1 (strain Nauru/West …, UniProt P17763)). Kind of experiment: ELISA.

B1: 513 engineered and humanized antibody (antibody, V domains shown)
VH: QVQLVQSGAEVKKPGASVKVSCKAGFNIKDVYMSWVRQAPEQGLEWMGRIDPENGDTKYDPKLQGRVTMTADTSTNTAYMELRSLRSDDTAVYYCARGWEGFAYWGQGTLVTVSS
VL: DIVMTQSPASLAVSLGQRATISCRASENVDKYGNSFMHWYQQKPGQPPKLLIYRASELQWGVPDRFSGSGSGTDFTLTISSLQAEDVAVYYCQRSNEVPWTFGQGTKLEIK
As to B1, the binding result in experiment [1] and in experiment [2] was “binds” each time.

(Values after article PMC11320570 (ACS Infectious Diseases, 2024).)
